PubChem BioAssay AID1224833 | University of Georgia, 2016
Here is a random part of about 12,000 deposited reagents. About 5,600 of them (46%) were called active. 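Active calls cover z-scores past 1 in both directions, so they include lowered as well as raised rotavirus replication.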 Unmarked entries are inactive.

- Aim: 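Host factors restraining rotavirus as candidate antiviral genes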 (primary screen)
- Cell system: monkey MA104 kidney cells
- Reagent: siRNA pool against human genes, 50 nM
- Duration: 48 h knock-down before infection; read 24 h after infection
- Treatment: infection with rotavirus strain RV3 two days after transfection; infectious dose for this stage not given
- Measured: 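z-score of rotavirus antigen signal per well, from a fluorescent immunoassay, relative to non-targeting control wells on the same plate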
- Direction: z-score vs non-targeting control: higher = more rotavirus replication than with non-targeting control
- Active means: In these data the active calls have z-score vs non-targeting control at about -1 or lower, or at about 1 or higher
- Calls: active = z-score beyond 1 either way; inactive = z-score within 1 of zero

With knock-down of DDX54 (DEAD-box helicase 54) [SID329580816], the screen gave z-score vs non-targeting control -0.804.
RAB6A (RAB6A, member RAS oncogene family) [SID329575046] scored z-score vs non-targeting control 0.552.
Knock-down of ARFGAP1 (ARF GTPase activating protein 1) [SID329579840] gave: z-score vs non-targeting control 0.903.
With knock-down of SCTR (secretin receptor) [SID329575251] the results were z-score vs non-targeting control -0.692.
For MAFF (MAF bZIP transcription factor F) [SID329578130], the values are z-score vs non-targeting control -0.746.
With knock-down of PLEKHG6 (pleckstrin homology and RhoGEF domain containing G6) [SID329579634] the results were z-score vs non-targeting control 1.21 (active).
RRAGC (Ras related GTP binding C) [SID329580577] scored z-score vs non-targeting control 0.821.
For IRS4 (insulin receptor substrate 4) [SID329576127] the deposit lists z-score vs non-targeting control -1.49 (active).
Depletion of LDLRAD4 (low density lipoprotein receptor class A domain containing 4) [SID329572975] gave: z-score vs non-targeting control -1.02 (active).
TBC1D28 (TBC1 domain family member 28) [SID329583700] scored z-score vs non-targeting control -1.02 (active).
NDUFA7 (NADH:ubiquinone oxidoreductase subunit A7) [SID329574565] scored z-score vs non-targeting control -2.3 (active).
With knock-down of OR1I1 (olfactory receptor family 1 subfamily I member 1) [SID329582547], the record shows z-score vs non-targeting control -0.526.
For DAOA (D-amino acid oxidase activator) [SID329583797], the entry reads z-score vs non-targeting control 0.76.
Knock-down of POF1B (POF1B actin binding protein) [SID329581107] gave: z-score vs non-targeting control -1.38 (active).
Depletion of ZNF589 (zinc finger protein 589) [SID329579050] resulted in: z-score vs non-targeting control -0.164.
Against SIN3B (SIN3 transcription regulator family member B) [SID329577932] the deposit lists z-score vs non-targeting control 0.18.
Knock-down of AP4E1 (adaptor related protein complex 4 subunit epsilon 1) [SID329577992] gave: z-score vs non-targeting control -1.67 (active).
Depletion of SMN2 (survival of motor neuron 2, centromeric) [SID329575398] came out at: z-score vs non-targeting control -1.2 (active).
After knock-down of RBM42 (RNA binding motif protein 42) [SID329580858] the results were z-score vs non-targeting control 1.24 (active).
CPTP (ceramide-1-phosphate transfer protein) [SID329581251] showed z-score vs non-targeting control 0.579.

Reprinted from the entries so far for reference:
OR1I1 (olfactory receptor family 1 subfamily I member 1) [SID329582547] — z-score vs non-targeting control: -0.526
DAOA (D-amino acid oxidase activator) [SID329583797] — z-score vs non-targeting control: 0.76
POF1B (POF1B actin binding protein) [SID329581107] — z-score vs non-targeting control: -1.38 (active)
ZNF589 (zinc finger protein 589) [SID329579050] — z-score vs non-targeting control: -0.164

Further entries follow.
SURF2 (surfeit 2) [SID329575530] showed z-score vs non-targeting control 2.31 (active).
OPA1 (OPA1 mitochondrial dynamin like GTPase) [SID329574701] showed z-score vs non-targeting control 0.84.
For RGS2 (regulator of G protein signaling 2) [SID329575121] the deposit lists z-score vs non-targeting control 0.313.
With knock-down of PIR (pirin) [SID329576168] the results were z-score vs non-targeting control 2.26 (active).
After knock-down of SPIC (Spi-C transcription factor) [SID329582430] the results were z-score vs non-targeting control -2.22 (active).
For DMC1 (DNA meiotic recombinase 1) [SID329577559], the values are z-score vs non-targeting control -1.42 (active).
DDAH2 (DDAH family member 2, ADMA-independent) [SID329578066] scored z-score vs non-targeting control -1.19 (active).
For DNAAF4 (dynein axonemal assembly factor 4) [SID329583203], the entry reads z-score vs non-targeting control -1.1 (active).
Against WDR70 (WD repeat domain 70) [SID329579565], the entry reads z-score vs non-targeting control 1.13 (active).
Depletion of ATF7 (activating transcription factor 7) [SID329577485] gave: z-score vs non-targeting control -1.87 (active).
MED27 (mediator complex subunit 27) [SID329576596] gave z-score vs non-targeting control 1.93 (active).
With knock-down of TSPAN7 (tetraspanin 7) [SID329575664], the screen gave z-score vs non-targeting control -0.501.
After knock-down of ZEB2 (zinc finger E-box binding homeobox 2) [SID329576826], the record shows z-score vs non-targeting control -0.896.
Against C8A (complement C8 alpha chain) [SID329572965], the entry reads z-score vs non-targeting control -0.0536.
Against BTNL3 (butyrophilin like 3) [SID329577426], the entry reads z-score vs non-targeting control -2.72 (active).
RAB38 (RAB38, member RAS oncogene family) [SID329578117] gave z-score vs non-targeting control 1.93 (active).
HADH (hydroxyacyl-CoA dehydrogenase) [SID329573928] gave z-score vs non-targeting control -0.835.
CD82 (CD82 molecule) [SID329574207] scored z-score vs non-targeting control -0.346.
With knock-down of RD3 (RD3 regulator of GUCY2D) [SID329584111], the screen gave z-score vs non-targeting control -0.471.
RASL10B (RAS like family 10 member B) [SID329582012] scored z-score vs non-targeting control -0.0658.
ARMCX6 (armadillo repeat containing X-linked 6) [SID329579285] gave z-score vs non-targeting control -1.52 (active).
ZNF599 (zinc finger protein 599) [SID329582963] gave z-score vs non-targeting control 0.582.
For NKAPD1 (NKAP domain containing 1) [SID329579646], the entry reads z-score vs non-targeting control 0.956.
Against SEH1L (SEH1 like nucleoporin) [SID329581376] the deposit lists z-score vs non-targeting control 0.332.
With knock-down of ATP2B1 (ATPase plasma membrane Ca2+ transporting 1) [SID329572860], the screen gave z-score vs non-targeting control 0.876.
Knock-down of CTDNEP1 (CTD nuclear envelope phosphatase 1) [SID329577975] gave: z-score vs non-targeting control 0.474.
KLHL32 (kelch like family member 32) [SID329582224] scored z-score vs non-targeting control -0.732.
